## PSTVd loop 15 mutant pool in Nicotiana benthamiana

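A pool of all variants was put on leaves of three Nicotiana benthamiana plants. Samples came from the inoculated region at 5 days, the leaf margin at 10 and upper systemic leaves at 12.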

The pool varies loop 15 of the PSTVd intermediate strain in the pattern GGAAACCGNNNNNNC; wild type is GGAAACCGCUACUAC (upper and lower strand joined, each 5' to 3', the first 7 letters being the upper strand, closing pairs included).

Numbers give reads per thousand; 0 = not seen among the reads, higher = more abundant. Each site shows the three plants. "Pool" is the share in the plasmid pool used as inoculum, on the same scale. The inoculated region was read from the minus strand, the other sites from the plus strand. With 43,870-66,106 reads a sample, very low values are single reads.

sequence,pool,inoculated region,leaf margin,systemic leaves
GGAAACCGGCUUAGC,0.240,0.0164 0.0643 0.0762,0 0 0,0 0 0
GGAAACCGGCUUAUC,0.160,0.147 0.0803 0.0952,0 0 0,0.0161 0 0
GGAAACCGGCUUCAC,0.272,0.0819 0.193 0.0762,0 0.0223 0,0.0483 0 0
GGAAACCGGCUUCCC,0.192,0.0983 0.0643 0.152,0.0162 0 0.0200,0 0 0
GGAAACCGGCUUCGC,0.272,0.131 0.0964 0.0762,0.0162 0.0223 0.0200,0 0 0
GGAAACCGGCUUCUC,0.224,0.0655 0.112 0.0952,0 0.0445 0,0 0 0
GGAAACCGGCUUGAC,0.224,0.0819 0.112 0.0571,0.0162 0.0223 0,0 0 0
GGAAACCGGCUUGCC,0.240,0.246 0.193 0.133,0 0 0.0200,0.0161 0 0
GGAAACCGGCUUGGC,0.176,0.115 0.0803 0.228,0 0 0,0 0 0.0228
GGAAACCGGCUUGUC,0.272,0.0491 0.129 0.133,0 0.0223 0.0200,0.0161 0 0
GGAAACCGGCUUUAC,0.272,0.180 0.177 0.171,0 0 0.0200,0 0 0.0228
GGAAACCGGCUUUCC,0.160,0.0819 0.0803 0.0952,0 0 0.0200,0 0 0
GGAAACCGGCUUUGC,0.144,0.147 0.129 0.0762,0 0 0.0401,0.0161 0 0
GGAAACCGGCUUUUC,0.176,0.0328 0.161 0.171,0.0323 0 0.0200,0 0 0
GGAAACCGGGAAAAC,0.208,0.0655 0.177 0.114,0.0162 0 0,0 0 0
GGAAACCGGGAAACC,0.304,0.131 0.112 0.171,0.0162 0.0223 0.0401,0 0 0
GGAAACCGGGAAAGC,0.144,0.0328 0.112 0.0952,0 0 0,0 0 0
GGAAACCGGGAAAUC,0.176,0.147 0.0964 0.114,0 0.0223 0,0 0 0
GGAAACCGGGAACAC,0.160,0.0983 0.0643 0.0381,0 0 0.0401,0 0 0
GGAAACCGGGAACCC,0.272,0.115 0.0964 0.0571,0 0.0223 0,0 0 0
GGAAACCGGGAACGC,0.144,0.131 0.0643 0.0571,0 0 0.0601,0 0 0
GGAAACCGGGAACUC,0.272,0.0328 0.112 0.0762,0 0 0.0200,0 0 0
GGAAACCGGGAAGAC,0.272,0.0819 0.145 0.133,0.0162 0 0.0401,0 0 0
GGAAACCGGGAAGCC,0.272,0.0819 0.0803 0.0381,0 0 0.0200,0 0 0
GGAAACCGGGAAGGC,0.208,0.131 0.0482 0.0381,0 0 0,0.0161 0 0.0228
GGAAACCGGGAAGUC,0.176,0.147 0.145 0.114,0.0323 0.0223 0.0200,0 0 0
GGAAACCGGGAAUAC,0.160,0.360 0.450 0.495,0.0647 0.0668 0.100,0.0644 0.0908 0.137
GGAAACCGGGAAUCC,0.208,0.147 0.0803 0.0571,0.0162 0 0.0200,0 0 0
GGAAACCGGGAAUGC,0.208,0.147 0.129 0.0952,0.0485 0 0.0401,0.0161 0 0
GGAAACCGGGAAUUC,0.240,0.491 0.402 0.457,0.113 0.111 0.301,0.0322 0 0
GGAAACCGGGACAAC,0.336,0.115 0.0482 0.0952,0 0 0,0 0 0
GGAAACCGGGACACC,0.176,0.115 0.112 0.114,0 0 0,0 0 0
GGAAACCGGGACAGC,0.144,0.0328 0.0964 0.133,0 0.0223 0,0 0 0
GGAAACCGGGACAUC,0.224,0.131 0.0161 0.0381,0 0 0.0200,0 0 0
GGAAACCGGGACCAC,0.240,0.0819 0.0803 0.0762,0.0162 0 0.0200,0 0 0
GGAAACCGGGACCCC,0.128,0.0491 0.0482 0.171,0 0.0223 0.0401,0 0 0
GGAAACCGGGACCGC,0.272,0.147 0.129 0.0762,0 0 0.0401,0 0 0.0228
GGAAACCGGGACCUC,0.192,0.0819 0.0964 0.0571,0 0 0.0200,0 0 0
GGAAACCGGGACGAC,0.144,0.0819 0.0482 0.0952,0.0162 0.0223 0,0.0161 0 0
GGAAACCGGGACGCC,0.144,0.0819 0.0643 0.114,0.0162 0 0.0200,0.0161 0 0
GGAAACCGGGACGGC,0.256,0.0655 0.241 0.133,0 0 0.0200,0 0 0
GGAAACCGGGACGUC,0.192,0.0655 0.0482 0.0381,0 0 0,0 0 0
GGAAACCGGGACUAC,0.288,0.377 0.257 0.362,0.146 0.0223 0.220,0.0161 0.0303 0
GGAAACCGGGACUCC,0.304,0.0819 0.0964 0.0762,0 0 0.0200,0 0 0
GGAAACCGGGACUGC,0.192,0.0819 0.0964 0.0571,0 0.0223 0,0 0 0
GGAAACCGGGACUUC,0.224,0.262 0.193 0.419,0.0808 0.0445 0.220,0.0483 0 0
GGAAACCGGGAGAAC,0.224,0.246 0.337 0.362,0.113 0.134 0.240,0 0.0151 0.0684
GGAAACCGGGAGACC,0.336,0.131 0.0321 0.0571,0 0.0223 0,0 0 0
GGAAACCGGGAGAGC,0.240,0.0491 0.112 0.0381,0.0162 0.0223 0.0200,0 0 0
GGAAACCGGGAGAUC,0.176,0.180 0.0964 0.0762,0 0 0.0200,0 0 0
GGAAACCGGGAGCAC,0.208,0.0655 0.0643 0.0762,0 0 0,0 0 0

Excerpt, the final 4 entries:

sequence,pool,inoculated region,leaf margin,systemic leaves
GGAAACCGGGAGACC,0.336,0.131 0.0321 0.0571,0 0.0223 0,0 0 0
GGAAACCGGGAGAGC,0.240,0.0491 0.112 0.0381,0.0162 0.0223 0.0200,0 0 0
GGAAACCGGGAGAUC,0.176,0.180 0.0964 0.0762,0 0 0.0200,0 0 0
GGAAACCGGGAGCAC,0.208,0.0655 0.0643 0.0762,0 0 0,0 0 0

For reference, wild type rose from 33.9 per thousand in the pool to 202, 200, 159 (inoculated region), 724, 746, 710 (leaf margin) and 856, 883, 880 (systemic leaves). The authors trace changes outside the varied positions to PCR and sequencing errors or to mutation in the plant; presence does not show that a variant is infectious alone.

Data from the supplement of Wu et al. 2024, doi:10.1371/journal.ppat.1012142.